Laboratory results: patent US20090291885A1, “Conjugated toxin peptide therapeutic agents” (published 2009)

Experiments:
[1] = target: human Kv1.1 channel (human) (UniProt Q09470); assay: cell-based or functional assay
[2] = target: human Kv1.3 channel (human) (UniProt P22001); assay: cell-based or functional assay

Substance: Fc-L10-OSK1[K7S, E16K, K20D] (Fc fusion)
- hKv1.1: IC50 [pM] [1]: 10000 pM

Substance: Fc-L10-OSK1[K7S] (Fc fusion)
- fold change of Kv1.3 potency against Fc-L10-OSK1 [2]: 2 fold
- fold loss of potency in Kv1.3 current block against synthetic OSK1 [2]: 10 fold
- hKv1.1: IC50 [pM] [1]: 100000 pM
